Results of unrelated studies side by side (data: NIAID ChemDB).

Shared fields: tests in culture; agent: Varicella zoster virus; cells: HEL; read by: cytopathic effect; measure: EC50

ECn is the concentration giving n% inhibition of infection, replication or growth. Neighbouring rows are from separate reports.

SMILES | strain or isolate | value
Nc1nc2c(nnn2CCOCP(=O)(O)O)c(=O)[nH]1 | OKA (TK+) | 0.4 µg/mL
CC1(C)[C@@H](CO)CC[C@@]1(C)Cn1cnc2c(Cl)ncnc21 | YS/R (TK-) | >50 µg/mL
CC[C@@H](O)C1=C[C@@H](n2cnc3c(N)ncnc32)[C@H](O)[C@@H]1O | 07/1 YS/R (TK-) | >50 µg/mL
CC(C)CS[C@H]1C[C@@H](n2cnc3c(N)ncnc32)[C@H](O)[C@@H]1O | YS | >200 µg/mL
CO[C@H](CO)[C@@H](O)CCn1cc(C)c(=O)[nH]c1=O | 07/1 (TK-) | >400 µg/mL
Nc1ncnc2nn(C[C@@H](CO)OCP(=O)(O)O)nc12 | 07/1 (TK-) | >100 µg/mL
C=C[C@H](O)C1=C[C@@H](n2cnc3c(N)ncnc32)[C@H](O)[C@@H]1O | 07/1 YS/R (TK-) | >50 µg/mL
CC1(C)[C@@H](CO)CC[C@@]1(C)Cn1cc(I)c(=O)[nH]c1=O | YS | >50 µg/mL
O=C(O)P(=O)(O)O | Clinical isolate VZV-28 | 84.6 µM
C[C@H](Cn1nc2nc(N)[nH]c(=O)c2n1)OCP(=O)(O)O | YS (TK+) | >20 µg/mL
CCCOc1ccc(-c2cc3cn([C@H]4C[C@H](O)[C@@H](CO)O4)c(=O)nc3o2)cc1 | YS/R (TK-) | >50 µM
C#C[C@@H](O)C1=C[C@@H](n2cnc3c(N)ncnc32)[C@H](O)[C@@H]1O | OKA YS | 15 µg/mL
CC1(C)[C@@H](CO)CC[C@@]1(C)Cn1cc(Br)c(=O)[nH]c1=O | YS/R (TK-) | >50 µg/mL
O=c1nc2oc(-c3ccc(Br)cc3)cc2cn1[C@H]1C[C@H](O)[C@@H](CO)O1 | YS | 0.1 µM
CC1(C)[C@@H](CO)CC[C@@]1(C)Cn1nnc2c(Cl)ncnc21 | OKA | >50 µg/mL
Nc1nc2c(ncn2COC(CO)CO)c(=O)[nH]1 | Oka acyclovir-resistant | 9.9 µM
C[C@H](Cn1nnc2c(N)ncnc21)OCP(=O)(O)O | YS (TK+) | 8 µg/mL
O=c1[nH]c(=O)n([C@H]2C[C@H](O)[C@@H](CO)O2)cc1/C=C/Br | YS | 0.0047 µM
COC(=O)[C@H](C)NP(=O)(OC[C@H]1O[C@@H](n2cc(/C=C/Br)c(=O)[nH]c2=O)C[C@@H]1O)Oc1ccccc1 | OKA | 0.05 µM
Nc1nc2c(ncn2CC[C@H](O)CCO)c(=O)[nH]1 | YS/R (TK-) | >400 µg/mL
CCCCCCCOc1ccc(-c2cc3cn([C@H]4C[C@H](O)[C@@H](CO)O4)c(=O)nc3o2)cc1 | YS | <0.5 µM
CO[C@H](CO)[C@@H](O)CCn1ccc(N)nc1=O | 07/1 (TK-) | >400 µg/mL
Nc1ccn(C[C@@H](CO)OCP(=O)(O)O)c(=O)n1 | 07/1 (TK-) | 0.23 µM
Nc1ccn(C(CF)CCCO)c(=O)n1 | OKA | >50 µg/mL
Cc1cn([C@H]2C/C(=N\O)[C@@H](CO)O2)c(=O)[nH]c1=O | 07/1 (TK-) | >200 µg/mL
Cc1cn(C(CF)CCCO)c(=O)[nH]c1=O | 07-01/TK- | >50 µg/mL
Nc1nc2c(ncn2COC(CO)CO)c(=O)[nH]1 | 07/1 (TK-) | 14 µM
O=c1[nH]c(=O)n([C@H]2C[C@H](O)[C@@H](CO)O2)cc1/C=C/Br | 07/1 (TK-) | >400 µg/mL
Nc1ncnc2c1ncn2[C@@H]1C=C(CO)[C@@H](O)[C@H]1O | OKA YS | 10 µg/mL
Cc1cn(CCCC(O)CF)c(=O)[nH]c1=O | 07-01/TK- | >50 µg/mL
COC(=O)[C@H](C)NP(=O)(OC[C@H]1O[C@@H](n2cc(/C=C/Br)c(=O)[nH]c2=O)C[C@@H]1O)Oc1ccc(Cl)cc1 | YS | 0.13 µM
Nc1ncnc2nn(C[C@@H](CF)OCP(=O)(O)O)nc12 | YS (TK+) | >10 µg/mL
Nc1nc(N)c2ncn(CCOCP(=O)(O)O)c2n1 | Oka penciclovir-resistant/A | 21.9 µM
Nc1nc2c(ncn2COCCO)c(=O)[nH]1 | OKA | 0.3 µg/mL
Nc1ccn(C[C@@H](CO)OCP(=O)(O)O)c(=O)n1 | Oka PMEDAP-resistant | 0.26 µM
COc1ccc(-c2cc3cn([C@H]4C[C@H](O)[C@@H](CO)O4)c(=O)nc3o2)cc1 | OKA | <0.5 µM
Nc1nc2c(ncn2CCC(CO)CO)c(=O)[nH]1 | Oka PFA-resistant/B | 5.8 µM
Nc1ncnc2c1ncn2CC[C@H](O)CCO | OKA | >400 µg/mL

Repeating the first 3 entries:

SMILES	strain or isolate	value
Nc1nc2c(nnn2CCOCP(=O)(O)O)c(=O)[nH]1	OKA (TK+)	0.4 µg/mL
CC1(C)[C@@H](CO)CC[C@@]1(C)Cn1cnc2c(Cl)ncnc21	YS/R (TK-)	>50 µg/mL
CC[C@@H](O)C1=C[C@@H](n2cnc3c(N)ncnc32)[C@H](O)[C@@H]1O	07/1 YS/R (TK-)	>50 µg/mL